A mixed list of measured activities; the numbers were collected in NIAID ChemDB.

All rows: whole-cell or culture tests; agent: Mycobacterium tuberculosis

Percent inhibition refers to the dose given; in toxicity tests it is the harm to the cells. Conditions beyond the fields shown may differ between rows. a–b is a range or a potency band. MIC bound: limit read from a one-dose screen. Blank or dashed fields: not listed here. MIC50, MIC90 and the like: level of inhibition, or share of isolates inhibited. ECn: concentration that inhibits the pathogen or its effect by n%.

SMILES,strain or isolate,mutations,method,conditions,endpoint,dose,result
CCCCS(=O)(=O)Nc1ccc2[nH]c(C(=O)N(C)Cc3ccccc3)c(C)c2c1,H37Rv,-,resazurin,-,MIC90,-,12.5 µM
O=C1c2cc(OC(F)(F)F)ccc2-n2c1nc1ccncc1c2=O,H37Rv,-,-,-,MIC,-,0.008 µg/mL
CC(=O)O[C@H]1C(=O)[C@]2(C)[C@@H](OC(C)=O)C[C@H]3OC[C@@]3(OC(C)=O)[C@H]2[C@H](OC(=O)c2ccccc2)[C@]2(O)C[C@H](OC(=O)[C@H](OC(C)=O)[C@@H](NC(=O)c3ccccc3)c3ccccc3)C(C)=C1C2(C)C,KM-R,-,-,-,MIC,-,3.1 µg/mL
O=C(Oc1ccc(Cl)cc1C(=O)Nc1ccc(Br)cc1)c1cnccn1,H37Rv 331/88,-,-,21 d,MIC,-,2 µM
CCCCCCCCCCCCSC(N)=S,H37Rv,-,resazurin,-,inhibition,6.25 µg/mL,90%
O=C(N/N=C/c1ccccc1F)c1ccncc1,Erdman,-,-,-,MIC,-,0.05 µg/mL
CCCCCCCCC/C=N/NC(=O)C(=O)N/N=C/CCCCCCCCC,H37Rv,-,BACTEC,-,inhibition,12.5 µg/mL,13%
O=C1c2cc(I)ccc2-n2c1nc1ncccc1c2=O,TN2557RFLF:P (MDR),-,-,-,MIC,-,0.03 µg/mL
CC1(C)S[C@@H]2[C@H](NC(=O)[C@H](N)c3ccccc3)C(=O)N2[C@H]1C(=O)O,BRE,-,-,-,MIC,-,>92 µM
CC(CNC[C@@H]1CC[C@H]2C[C@@H]1C2(C)C)N[C@H]1C[C@H]2C[C@@H]([C@@H]1C)C2(C)C,-,-,-,-,MIC,-,25 µM
O=C(N/N=C/c1cccc(F)c1)c1ccncc1,Isoniazid-resistant,-,-,-,MBC,-,>1.6 µg/mL
Fc1ccccc1CCNCCNCCC1=CCCCC1,-,-,-,-,MIC,-,25 µM
O=C([C@@H](O)CO)N1CC=C(c2c(F)cc(N3C[C@H](COc4ccon4)OC3=O)cc2F)CC1,linezolid resistant 8.3,T460C Cys154Arg,-,-,MIC,-,16 µg/mL
CN[C@@H]1[C@H](O[C@H]2[C@H](O[C@H]3[C@H](O)[C@@H](O)[C@H](N=C(N)N)[C@@H](O)[C@@H]3N=C(N)N)O[C@@H](C)[C@]2(O)C=O)O[C@@H](CO)[C@H](O)[C@H]1O,ATCC 27294,-,broth dilution,-,MIC80,-,0.3 µM
O=c1oc2ccccc2cc1-c1cs/c(=N\N=C\c2ccccc2[N+](=O)[O-])n1C1CCCCC1,H37Rv,-,-,-,inhibition,12.5 µg/mL,12%
NNC(=O)c1ccncc1,17003,Ethambutol-resistant,broth dilution,-,MIC80,-,0.2 µM
Cc1ccc(C)n1-c1ccsc1C(=O)NNC(=O)C(Cl)(Cl)Cl,H37Rv,-,BACTEC,-,inhibition,12.5 µg/mL,-5%
CCCn1c(O)c(N=NC(=O)c2ccncc2)c2ccccc21,BOVIN,-,-,-,MIC,-,3.1 µg/mL
O=C1c2cc(C3CCCCC3)ccc2-n2c1nc1ccncc1c2=O,H37Rv,-,-,-,MIC,-,0.015 µg/mL
NNC(=O)c1ccncc1,STB-960,-,resazurin,-,MIC,-,0.125 µg/mL
CC[C@H](CO)NCCNC[C@]1(C)CCC[C@]2(C)c3ccc(C(C)C)cc3CC[C@@H]12,-,-,-,-,MIC,-,50 µM
COc1cc([C@H]2c3cc(O)c(OC)cc3C[C@@H]3C(=O)OC[C@H]23)ccc1O,H37Rv,-,BACTEC,-,inhibition,12.5 µg/mL,3%
CCCCC(CC)CN1CN(CC(CC)CCCC)CC(C)(NCCNCCO)C1,-,-,-,-,MIC,-,12.5 µM
NC1=C([N+](=O)[O-])NC2OC[C@@H](OCc3ccc(OC(F)(F)F)cc3)CN12,Ddn-,-,broth dilution,-,MIC,-,>100 µM
N#C[B][n+]1ccc(C(=O)NNCC(F)(F)F)cc1,H37Rv,-,-,-,MIC,-,0.78 µg/mL
CC1COc2c(N3CCN(C)CC3)c(F)cc3c(=O)c(C(=O)O)cn1c23,H37Rv (ATCC 35811),-,broth dilution,-,MIC,-,0.5–1 µg/mL
CCC(=O)N1CCN(c2ccc(C(C)=O)cc2)CC1,BioA underexpression strain,-,turbidity,-,MIC50,-,>50 µM
CC(=O)Oc1cc(-c2ccc3c(c2)C2(C)c4cc(OC(C)=O)c5ccccc5c4OC2(C)N3C)c(OC(C)=O)c2ccccc12,H37Rv,-,BACTEC,-,inhibition,12.5 µg/mL,64%
COc1ccc(OC)c(C2OC(c3ccncc3)=NN2C)c1,16PI,-,-,-,MIC,-,>20 µg/mL
CC(=O)O[C@H]1[C@H](OC(C)=O)[C@H](OC(C)=O)CO[C@H]1Nn1c(=O)[nH]c2ccccc2c1=O,H37Rv,-,BACTEC,-,MIC bound,-,>6.25 µg/mL
O=C(c1ccncc1)N1N=C(c2ccco2)CC1(O)C(Cl)(Cl)Cl,RGH102,-,-,-,MIC,-,>268 µM
CCCCC(c1ccc2c(c1)C(=O)c1nc3ccncc3c(=O)n1-2)C(C)C,H37Rv,-,-,-,MIC,-,0.06 µg/mL
O=C(c1ccncc1)N1N=C(c2ccccc2)CC1(O)C(F)(F)F,RGH101,-,-,-,MIC,-,74.63 µM
CC(=O)c1ccc(N2CCC(C(=O)c3ccc4c(c3)OCO4)CC2)cc1,BioA underexpression strain,-,turbidity,-,MIC50,-,>50 µM
O=C(c1ccncc1)N1N=CCC1(O)C(F)(F)F,H37Rv,-,-,-,MIC,-,0.77 µM
CN1Cc2cc(N3CCN(C(=O)c4cccc(Cl)c4)CC3)ccc2C1=O,BioA overexpression strain,-,turbidity,-,MIC90,-,>50 µM
CC(=O)NC[C@H]1CN(c2ccc(N3CCOCC3)c(F)c2)C(=O)O1,linezolid resistant 8.1,T460C Cys154Arg,-,-,MIC,-,16 µg/mL
CCC(C)(C)NCCNCc1cccc(F)c1,-,-,-,-,MIC,-,50 µM
O=C(Oc1ccc(Cl)cc1C(=O)Nc1ccc(C(F)(F)F)cc1)c1cnccn1,extensively drug resistant Praha 131,-,-,21 d,MIC,-,0.125 µM
O=C(c1ccncc1)N1N=C(c2cccs2)CC1(O)C(Cl)(Cl)Cl,RGH102,-,-,-,MIC,-,>257 µM
CCCCS(=O)(=O)Nc1ccc2[nH]c(C(=O)NCc3ccccc3Cl)c(C)c2c1,H37Rv,-,resazurin,-,MIC90,-,3.13 µM
C=CCn1c(-c2cc3ccccc3oc2=O)cs/c1=N\N=C\c1ccc(O)c(OCC)c1,H37Rv,-,-,-,EC50,-,<12.5 µg/mL
CN1N=C(c2ccncc2)OC1c1ccc(Cl)cc1Cl,16PI,-,-,-,MIC,-,>1 µg/mL
O=C(N=Nc1c(O)n(Cc2ccccc2)c2ccccc12)c1ccncc1,Human resistant isolate,-,-,-,MIC,-,3.5 µg/mL
CO[C@@H]1C/C=C\C=C\C[C@H](C)[C@@H](O)C[C@@H](O)[C@H](C)[C@H](O)CC(=O)O[C@H]([C@H](C)[C@H](O)/C=C(\C)CC/C=C/C=C/CC(O)CC(C)CCC(=O)O)C[C@H](O)CCC1,HUG.MI.1020,katG mutant isoniazid resistant,resazurin / absorbance,-,MIC,-,2.3 µg/mL
C/C(=N\NC(=O)c1ccncc1)c1ccccc1,H37Rv (rifampin-resistant),-,-,-,MIC,-,2 µg/mL
CCC/[N+]([O-])=C/c1ccc([N+](=O)[O-])o1,H37Rv,-,BACTEC,-,inhibition,12.5 µg/mL,63%
CCCCn1c(-c2cc3ccccc3oc2=O)cs/c1=N\N=C\c1ccc(Cl)cc1,H37Rv,-,-,-,inhibition,12.5 µg/mL,81%
COc1ccccc1CCNCCNC(c1ccccc1)c1ccccc1,-,-,-,-,MIC,-,12.5 µM
CC/C(=C(\c1ccccc1)c1ccc(OCCN(C)C)cc1)c1ccccc1,RifR,-,resazurin,-,MIC,-,6.25–12.5 µg/mL
COc1ccc(C2OC(c3ccncc3)=NN2C)cc1F,16PI,-,-,-,MIC,-,>20 µg/mL
O=C(Oc1ccc(Br)cc1C(=O)Nc1ccc(C(F)(F)F)cc1)c1cnccn1,multidrug resistant 7357/1998,-,-,21 d,MIC,-,0.25 µM
O=C(O)c1cc(=O)[nH]c(SCc2ccc(Cl)cc2Cl)n1,H37Rv,-,BACTEC,-,inhibition,12.5 µg/mL,0%
O=C(NNCc1ccccc1F)c1ccncc1,H37Rv (ciprofloxacin-resistant),-,-,-,MIC,-,3.9 µg/mL
CC1=C(C(=O)O)N2C(=O)C(NC(=O)C(c3ccccc3)N3CSC(=S)N(C(C)C)C3)C2SC1,H37Rv,-,BACTEC,-,inhibition,12.5 µg/mL,10%
CC(NNC(=O)c1ccncc1)c1cccc(C(F)(F)F)c1,Erdman,-,-,-,MIC,-,3.13 µg/mL
O=c1n(-c2ccccc2)c(=O)n2n1C1/C=C\C=C/C2C2CCC21,H37Rv,-,resazurin,-,MIC bound,-,>6.25 µg/mL
O=C(Oc1cc(Cl)ccc1C(=O)Nc1ccc(F)cc1)c1cnccn1,H37Rv 331/88,-,-,14 d,MIC,-,2 µM
COC(=O)CC1(C(=O)OC)Nc2cc(Cl)c(Cl)cc2S(=O)(=O)N1O,H37Rv,-,BACTEC,-,inhibition,6.25 µg/mL,0%
CCOC(=O)c1[nH]c2ccc(NC(=O)OC(C)(C)C)cc2c1C,H37Rv,-,resazurin,-,MIC90,-,>100 µM
CCCCCCCCCCCNCCNCc1ccco1,-,-,-,-,MIC,-,50 µM
CN1N=C(c2ccncc2)OC1c1ccccc1,16PI,-,-,-,MIC,-,>20 µg/mL
Cc1cccc2nc3n(c(=O)c12)-c1ccc(F)cc1C3=O,H37Rv,-,-,-,MIC,-,0.13 µg/mL
O=C1CCc2cc(N3CCN(C(=O)c4cccc(Cl)c4)CC3)ccc21,BioA underexpression strain,-,turbidity,-,MIC90,-,0.9 µM
CN1C(=O)CNC(=O)c2ccc(Cl)cc21,H37Rv,-,BACTEC,-,inhibition,12.5 µg/mL,27%
COc1nc2ccc(Br)cc2cc1[C@@H](c1ccccc1)[C@@](O)(CCN(C)C)c1cccc2ccccc12,-,-,broth dilution,-,MIC80,-,0.2 µM
CCCCCCCCOC(=O)C12Oc3ccc(Cc4ccc5c(c4O)C(O)=C4C(=O)CC(C)C(O)C4(C(=O)OCCCCCCCC)O5)c(O)c3C(O)=C1C(=O)CC(C)C2O,H37Rv,-,BACTEC,-,MIC bound,-,>12.5 µg/mL
Clc1ccc(CCNCCNCc2ccccc2)c(Cl)c1,-,-,-,-,MIC,-,50 µM
O=C(NC1CCCCC1)N(C(=O)c1cnccn1)C1CCCCC1,331/88,-,-,14 d,MIC,-,500 µM
O=C1c2ccccc2-n2c1nc1cc(Cl)cc(Cl)c1c2=O,H37Rv,-,-,-,MIC,-,4 µg/mL
C[CH2][Sn]([F])([F])[CH2]C.Cc1cnc2c(ccc3c(C)c(C)cnc32)c1C,H37Rv,-,BACTEC,-,MIC bound,-,≤12.5 µg/mL
CCCCS(=O)(=O)Nc1ccc2[nH]c(C(=O)OCC)c(C)c2c1,DRM167 16x6,I122S DG167-resistant,resazurin,-,MIC90,-,12.5 µM
C=C1C(=O)OC2CC1C(OC(C)=O)CC1(C)OC1CCC1(C)OC1CCC2(C)O,H37Rv,-,resazurin,-,MIC bound,-,>6.25 µg/mL
CC(=O)c1ccc(N2CCN(C(=O)c3cncc(Cl)c3)CC2)cc1,BioA overexpression strain,-,turbidity,-,MIC50,-,>50 µM
O=C(N/N=C/c1ccc([N+](=O)[O-])s1)c1ccncc1,-,-,BACTEC,-,inhibition,0.5 µM,99%
CCCCCCCCc1ccc2c(c1)C(=O)c1nc3ccncc3c(=O)n1-2,10038RFLP:W (MDR),-,-,-,MIC,-,≤0.015 µg/mL
O=C(O)C(=O)O.OC(CNCCc1ccccc1)CN1c2ccccc2Sc2ccccc21,MDR-6233,-,resazurin,-,MIC,-,4 µg/mL
CN1N=C(c2ccncc2)OC1c1ccc(Cl)c(Cl)c1,H37Rv,-,-,-,MIC,-,10 µg/mL
O=c1[nH]cc(Cn2cccc3c(=O)ncnc2-3)c(=O)[nH]1,H37Rv,-,resazurin,-,MIC bound,-,>6.25 µg/mL
CCn1c(-c2cc3ccccc3oc2=O)cs/c1=N\N=C\c1ccc(Cl)cc1,H37Rv,-,-,-,MIC,-,>12.5 µg/mL
O=C(CSCC(=O)N/N=C/c1ccccc1O)N/N=C/c1ccccc1O,H37Rv,-,BACTEC,-,MIC,-,≥12.5 µg/mL
O=C(Oc1ccc(Cl)cc1C(=O)Nc1cccc(C(F)(F)F)c1)c1cnccn1,multidrug resistant 53/2009,-,-,14 d,MIC,-,1 µM
Cc1cnc(/C=N/NC(N)=S)cn1,RMP-R,-,-,-,MIC,-,12.5 µg/mL
CCCCS(=O)(=O)Nc1ccc2[nH]c(C(=O)NCc3ccc(F)cc3)c(C)c2c1,H37Rv,-,resazurin,-,MIC90,-,25 µM

Again, the opening 8 rows:

SMILES,strain or isolate,mutations,method,conditions,endpoint,dose,result
CCCCS(=O)(=O)Nc1ccc2[nH]c(C(=O)N(C)Cc3ccccc3)c(C)c2c1,H37Rv,-,resazurin,-,MIC90,-,12.5 µM
O=C1c2cc(OC(F)(F)F)ccc2-n2c1nc1ccncc1c2=O,H37Rv,-,-,-,MIC,-,0.008 µg/mL
CC(=O)O[C@H]1C(=O)[C@]2(C)[C@@H](OC(C)=O)C[C@H]3OC[C@@]3(OC(C)=O)[C@H]2[C@H](OC(=O)c2ccccc2)[C@]2(O)C[C@H](OC(=O)[C@H](OC(C)=O)[C@@H](NC(=O)c3ccccc3)c3ccccc3)C(C)=C1C2(C)C,KM-R,-,-,-,MIC,-,3.1 µg/mL
O=C(Oc1ccc(Cl)cc1C(=O)Nc1ccc(Br)cc1)c1cnccn1,H37Rv 331/88,-,-,21 d,MIC,-,2 µM
CCCCCCCCCCCCSC(N)=S,H37Rv,-,resazurin,-,inhibition,6.25 µg/mL,90%
O=C(N/N=C/c1ccccc1F)c1ccncc1,Erdman,-,-,-,MIC,-,0.05 µg/mL
CCCCCCCCC/C=N/NC(=O)C(=O)N/N=C/CCCCCCCCC,H37Rv,-,BACTEC,-,inhibition,12.5 µg/mL,13%
O=C1c2cc(I)ccc2-n2c1nc1ncccc1c2=O,TN2557RFLF:P (MDR),-,-,-,MIC,-,0.03 µg/mL